Consider 1 compound from ChEMBL document CHEMBL1132146, “Chemical stability and fate of the cytostatic drug ifosfamide and its N-dechloroethylated metabolites in acidic aqueous solutions” (J Med Chem, 1999).

This data set deals with Mus musculus. Briefly: acute toxicity against mouse after ip administration. The class given is organism-based. To be noted: in vivo. An outline of the steps:
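Single iv or ip injection; two female SD rats or male CD2F1 mice per dose group. Lethality and clinical signs of toxicity observed for 28 days to give an approximate LD50. Animals kept specific-pathogen-free with pellet diet and acidified water (pH 3) ad libitum.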

In turn, `Cl.NCCCl` gave an LD50 of 2200 mg/kg.
